{"source": "paper PMC12102759", "about": "(Protein Science : A Publication of the Protein Society, 2025)", "molecular_target": "NSP3 ADRP (Severe acute respiratory syndrome coronavirus 2, UniProt P0DTC1)", "assay": "biochemical", "type": "binding, SARS‐CoV‐2", "note": "pKd: −log10 of the molar value."}
{"smiles": "CC[C@H](C)[C@H](NC(=O)CNC(=O)[C@H](CC(C)C)NC(=O)[C@H](CC(C)C)NC(=O)[C@H](CCC(=O)O)NC(=O)[C@H](CO)NC(=O)[C@H](CC(C)C)NC(=O)[C@@H]1CCCN1C(=O)[C@H](Cc1c[nH]cn1)NC(=O)[C@H](CC(C)C)NC(=O)[C@H](Cc1ccc(O)cc1)NC(=O)[C@@H](NC(=O)[C@H](CO)NC(C)=O)[C@@H](C)O)C(=O)N1CCC[C@H]1C(=O)N[C@@H](CC(C)C)C(=O)N[C@@H](CC(=O)O)C(N)=O", "note": "[MBOAT1 wt]", "values": [{"measurement": "pKd", "value": 4.31}]}
